Here are results for three compounds from publication PMC3334918, “Mutagenesis and Functional Studies with Succinate Dehydrogenase Inhibitors in the Wheat Pathogen Mycosphaerella graminicola” (PLoS ONE, 2012).

Each structure is given as a SMILES string.

Assay [1] deals with M. graminicola WT (IPO323). Format: cell-based, Mycosphaerella graminicola. To be noted: None, ratio IC50mutant/IC50WT. As for the experimental part:
To explore the sensitivity profiles conferred by amino acid substitutions at the cellular and mitochondrial level, we determined sensitivity towards 4 different compounds for 26 of the identified substitution types both in vivo using liquid culture growth (AE media) and in vitro using purified mitochondria and the succinate: Q0/DCPIP activity test (Table 3). […] Resistance factors (RF) were determined as the ratio IC50mutant/IC50WT. […] Qp site mutations are well known to influence SDH enzyme activity and stability upon catalysis, [13], [38], [41].
Conidial cells were collected from 4 day old V8 agar plates (cultured at 18°C in the dark) using liquid AE and a cell spreader. Cell density was determined and cells re-suspended to a concentration of 5×10^5 cells ml^−1 in AE media. Sterile 96 wells microtiter plates with lids (Costar) were inoculated with 198 µl of this cell suspension (10^5 cells per well) and 2 µl of inhibitor (100× in DMSO). Final inhibitor concentrations were between 0.95 nM and 1 mM with uniform 4× dilution factor steps (11 inhibitor concentrations+1 DMSO control). Plates were incubated for 6 days at 19°C in the dark before cells were re-suspended and measured for growth (OD600 nm). IC50 values were determined by non linear curve fitting on the basis of measured OD values versus log inhibitor concentrations (GraphPad Prism 5.0 software).

Assay [2] relates to M. graminicola isolate IPO323. Nature of the assay: UV mutagenesis and selection of resistant colonies on carboxamide amended AE agar. Format: cell-based, Mycosphaerella graminicola. The procedure: Selection plates were produced after adding 1% of a 100× DMSO solution of the active ingredients to pre-melted AE-agar.
Cells were harvested from 4 days old V8 agar plates and conidial cells were suspended in liquid AE. 10^7 cells were spread onto carboxamide amended AE agar plates and mutagenized using UV Stratalinker 2400 (Stratagene) with 75 mJ cm^−2 or 50 mJ cm^−2. […] Selection plates were incubated in the dark at 20°C for 14 days. Visible colonies were picked from the primary selection plate and re-grown on fresh selection media for 2 additional weeks under the same conditions.

The mark [3] stands for this setting: selection at 5× MSC, UV treatment 50 mJ cm^−2.
The mark [4] stands for this setting: selection at 5× MSC, UV treatment 75 mJ cm^−2.
Where [5] appears, read: selection at MSC, UV treatment 50 mJ cm^−2.

As for `O=C(NCCc1ncc(C(F)(F)F)cc1Cl)c1ccccc1C(F)(F)F` [Fluopyram], the “Resistance Factors (RFs) in vivo” value in assay [1] is recorded as 1. The “Frequency (of resistance development)” value is recorded as “absence of growing colonies” in assay [2] (setting [3]), 2.2E-08 in assay [2] (setting [4]) and 7.1E-07 in assay [2] (setting [5]).

As for `O=C(Nc1ccccc1-c1ccc(Cl)cc1)c1cccnc1Cl` [Boscalid], in assay [1], the “Resistance Factors (RFs) in vivo” value came to 1. Besides, the entries for the “Frequency (of resistance development)” value in assay [2] (setting [3]) and in assay [2] (setting [5]) were 8.8E-06 and 1.3E-06, respectively.

On to `CC1=C(C(=O)Nc2ccccc2)SCCO1` [Carboxin], for which the “Resistance Factors (RFs) in vivo” value in assay [1] was found to be 1. Besides, the “Frequency (of resistance development)” value stood at 1.1E-08 in assay [2] (setting [3]), 1.1E-08 in assay [2] (setting [4]) and 6.2E-07 in assay [2] (setting [5]).
